# Patent US9394295B2, “Antibacterial homopiperidinyl substituted 3,4-dihydro-1H-[1,8]naphthyridinones” (Janssen Sciences Ireland UC, priority 2011, dated 2016)
# The chains behind the UniProt entries cited, without tags or fusion partners.
# UniProt Q6GI75, whole entry: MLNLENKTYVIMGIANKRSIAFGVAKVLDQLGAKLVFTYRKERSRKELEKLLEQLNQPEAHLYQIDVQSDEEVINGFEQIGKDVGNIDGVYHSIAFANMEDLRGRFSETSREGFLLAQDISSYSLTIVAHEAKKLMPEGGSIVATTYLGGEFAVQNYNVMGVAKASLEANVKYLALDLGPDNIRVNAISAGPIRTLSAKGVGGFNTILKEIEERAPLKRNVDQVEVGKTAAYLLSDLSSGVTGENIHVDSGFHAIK
# Target: S. aureus ATCC 29213 FabI (Staphylococcus aureus, UniProt Q6GI75)
# Test: Staphylococcus aureus FabI enzyme inhibition assay
# Assay type: biochemical
# Conditions: 30 minutes at room temperature, NADH consumption
# Method: FabI enzyme inhibition assays were carried out in half-area, 384-well microtitre plates. Compounds were evaluated in 40-μl assay mixtures containing 100 mM NaADA, pH 6.5 (ADA=N-[2-acetamido]-2iminodiacetic acid), 250 μM crotonoyl-CoA, 625 μM NADH and 50 μg/ml S. aureus ATCC 29213 FabI Inhibitors were typically varied over the range of 50 to 0.39 μM. The reaction mixtures were incubated for 30 minutes at room temperature and the reaction was stopped by adding 200 mM Tris buffer (pH 9.0) to create a pH-shift. The consumption of NADH was monitored by measuring the change in absorbance at […]. By comparing sample readings to those of negative (absence of compound) and positive (absence of enzyme) controls, the percent inhibition of enzymatic activity of the compounds was determined. A best-fit curve is fitted by a minimum of squares method. From this an IC50-value (expressed in μg/ml), resulting in 50% inhibition of enzymatic activity, was obtained.
row,Compound,FabI IC50 [µg/mL]
1,CC1=C(c2ccccc2)CCCN(C(=O)/C=C/c2cnc3c(c2)CCC(=O)N3)C1,1.07
2,COc1ccccc1C1CCCN(C(=O)/C=C/c2cnc3c(c2)CCC(=O)N3)CC1 (stereo not shown),0.48
3,O=C1CCc2cc(/C=C/C(=O)N3CCC=C(c4ccccc4OC(F)(F)F)CC3)cnc2N1,0.68
4,O=C1CCc2cc(/C=C/C(=O)N3CC=C(c4nccs4)CCC3)cnc2N1,0.41
5,O=C1CCc2cc(/C=C/C(=O)N3CCC=C(c4cccs4)CC3)cnc2N1,0.4
6,O=C1CCc2cc(/C=C/C(=O)N3CCC=C(c4cc(F)cc(Cl)c4)CC3)cnc2N1,0.66
7,O=C1CCc2cc(/C=C/C(=O)N3CCCC(F)(F)CC3)cnc2N1,4.22
8,O=C1CCc2cc(/C=C/C(=O)N3CC=C(c4cccc(Cl)c4Cl)CCC3)cnc2N1,0.84
9,O=C1CCc2cc(/C=C/C(=O)N3CCC=C(c4cccc(Cl)c4Cl)CC3)cnc2N1,0.82
10,O=C1CCc2cc(/C=C/C(=O)N3CCC=C(c4nccs4)CC3)cnc2N1,0.39
11,O=C1CCc2cc(/C=C/C(=O)N3CC=C(c4cc(Cl)cc(Cl)c4)CCC3)cnc2N1,1.01
12,O=C1CCc2cc(/C=C/C(=O)N3CCC=C(c4cccc(OC(F)(F)F)c4)CC3)cnc2N1,0.76
13,O=C1CCc2cc(/C=C/C(=O)N3CCCC(n4cccc4)CC3)cnc2N1 (stereo not shown),1.70
14,O=C1CCc2cc(/C=C/C(=O)N3CC=C(c4cc(F)cc(Cl)c4)CCC3)cnc2N1,0.72
15,O=C1CCc2cc(/C=C/C(=O)N3CC=C(c4ccccc4OC(F)(F)F)CCC3)cnc2N1,0.68
16,O=C1CCc2cc(/C=C/C(=O)N3CCC=C(c4cc(Cl)cc(Cl)c4)CC3)cnc2N1,1.09
